Measured values taken from US20040091855A1, “Method for production of antivirals by use of HIV-derived HR1 peptides, and trimers formed therefrom” (priority 2002, published 2004).

Assays:
[1] = Sedimentation equilibrium experiments (oligomerization state); format: physicochemical; details: in solution; peptide 1 μM to 100 μM
Procedure: Oligomerization state was assessed by using methods standard in the art for performing sedimentation equilibrium experiments and for analysis of the resultant data. In that regard, sedimentation equilibrium experiments were performed over a concentration range of synthetic peptide (1 μM to 100 μM) as follows. Briefly, six-channel cells (12 mm optical path length) were used with an An-60 Ti rotor operated at 13,500 rpm, 18,000 rpm, 22,000 rpm, and 35,000 rpm) in an analytical ultracentrifuge at 4C. The cell radii were scanned using 0.001 cm steps with 10 averages/scan at 3 different wavelengths (235 nm, 240 nm, 280 nm). Data obtained with solutions containing synthetic peptide was analyzed using a single species model to determine a weight-averaged molecular weight (MW). Diagnostic plots of MW/ MW0 vs. rpm/rpm0 and MW vs. radial concentration were used to test for sample homogeneity. When systemic residuals or a MW higher than monomer molecular weight indicated the presence of self-association, associative models were investigated. The suitability of a model (goodness of fit) was judged by the trends observed in the residuals.

[2] = Helicity by circular dichroism; format: physicochemical; details: at 10 μM, 25° C.
Procedure: (§1) Helicity was assessed by circular dichroism (“CD”) as follows. Briefly, CD spectra were obtained using a spectrometer equipped with a thermoelectric temperature controller. The spectra was obtained at 25° C. with 0.5 nanometer (nm) steps from 200 to 260 nm, with a 1.5 nm bandwith, and a typical averaging time of 4 seconds/step. After the cell/buffer blank was subtracted, spectra were smoothed using a third-order least-squares polynomial fit with a conservative window size to give random residuals. Raw ellipticity values were converted to mean residue ellipticity using standard methods, and plotted was the wavelength (from 200 to 260 nm) versus [θ]×10^−3 (degrees cm^2/dmol). Percent helicity values were then calculated using standard methods. Assessment of thermal stability was performed by monitoring the change in CD signal at 222 nm as temperature was raised in 2° C. steps, with 1 minute equilibration times. The thermal stability for each sample (e.g., synthetic peptide) was represented by the transition temperature (Tm) determined by the derivative method.

[3] = Thermal stability (Tm) by CD signal at 222 nm; format: physicochemical; details: at 10 μM
Procedure: as §1

[4] = system: HR2 peptide (SEQ ID NO:33); experiment: Fluorescence polarization assay of binding to labeled HR2 peptide; design: species or system HIV-1; details: ability to complex with HR2 peptide denoted as yes
Source text: These include a protein chip assay (using Biacore analysis) in which surface plasmon resonance is used to detect the binding, and kinetics thereof, between a synthetic peptide and an HR2 peptide; and a fluorescence polarization assay. In the fluorescence polarization assay, a detectable moiety comprising a fluorescent dye (e.g., rhodamine and/or fluorescein) was used to label HR2 peptide, and the assay was then allowed to proceed under sufficient conditions and for a sufficient period of time for labeled peptide to bind to HR1 peptide, or synthetic peptide (or trimer formed therefrom).

[5] = system: HIV IIIB; format: cell-based, HIV-1; details: IIIB

CC[C@H](C)[C@H](NC(=O)CNC(=O)[C@H](Cc1c[nH]c2ccccc12)NC(=O)[C@@H](NC(=O)[C@@H](NC(=O)[C@H](C)NC(=O)[C@H](CCC(N)=O)NC(=O)[C@H](CC(C)C)NC(=O)[C@H](C)NC(=O)[C@H](Cc1c[nH]cn1)NC(=O)[C@H](CCC(N)=O)NC(=O)[C@H](CCC(N)=O)NC(=O)[C@H](C)NC(=O)[C@H](CCC(=O)O)NC(=O)[C@H](CC(C)C)NC(=O)[C@H](C)NC(=O)[C@H](CCCNC(=N)N)NC(=O)[C@H](CC(C)C)NC(=O)[C@@H](NC(=O)[C@H](CC(N)=O)NC(=O)[C@H](CC(N)=O)NC(=O)[C@H](CCC(N)=O)NC(=O)[C@H](CCC(N)=O)NC(=O)[C@H](CCC(N)=O)NC(=O)[C@@H](NC(=O)[C@H](CC(C)C)NC(=O)CNC(=O)[C@H](CO)NC(=O)[C@@H](NC(=O)[C@H](CC(C)C)NC(=O)[C@H](CCC(N)=O)NC(=O)[C@H](CCCNC(=N)N)NC(=O)[C@H](C)NC(=O)[C@H](CCC(N)=O)NC(C)=O)C(C)C)C(C)C)[C@@H](C)CC)[C@@H](C)O)C(C)C)C(=O)N[C@@H](CCCCN)C(=O)N[C@@H](CCC(N)=O)C(=O)N[C@@H](CC(C)C)C(=O)N[C@@H](CCC(N)=O)C(=O)N[C@@H](C)C(=O)N[C@@H](CCCNC(=N)N)C(=O)N[C@H](C(=O)N[C@@H](CC(C)C)C(=O)N[C@@H](C)C(=O)N[C@@H](CC(C)C)C(=O)N[C@@H](CCC(=O)O)C(=O)N[C@@H](CCCNC(=N)N)C(=O)N[C@@H](Cc1ccc(O)cc1)C(=O)N[C@H](C(=O)N[C@@H](CCCCN)C(=O)N[C@@H](CC(=O)O)C(=O)N[C@@H](CCC(N)=O)C(N)=O)[C@@H](C)CC)C(C)C [SEQ ID NO:39]
Oligomerization [1]: Trimer* | Helicity [2]: 63% | Stability Tm [3]: Tm 68 °C | HR2 peptide binding [4]: Yes | Antiviral activity against HIV IIIB IC50 [5]: 0.26 µg/mL | Antiviral activity against HIV IIIB IC90 [5]: 1.20 µg/mL

CC[C@H](C)[C@H](NC(=O)CNC(=O)[C@H](Cc1c[nH]c2ccccc12)NC(=O)[C@@H](NC(=O)[C@@H](NC(=O)[C@H](CC(C)C)NC(=O)[C@H](CCC(N)=O)NC(=O)[C@H](CC(C)C)NC(=O)[C@H](CC(C)C)NC(=O)[C@H](Cc1c[nH]cn1)NC(=O)[C@H](CCC(N)=O)NC(=O)[C@@H](NC(=O)[C@H](C)NC(=O)[C@H](CCC(=O)O)NC(=O)[C@@H](NC(=O)[C@H](C)NC(=O)[C@H](CCCNC(=N)N)NC(=O)[C@H](CC(C)C)NC(=O)[C@H](CC(C)C)NC(=O)[C@H](CC(N)=O)NC(=O)[C@H](CC(N)=O)NC(=O)[C@H](CCC(N)=O)NC(=O)[C@H](CCC(N)=O)NC(=O)[C@H](CCC(N)=O)NC(=O)[C@@H](NC(=O)[C@@H](NC(=O)CNC(=O)[C@H](CO)NC(=O)[C@H](CC(C)C)NC(=O)[C@H](CC(C)C)NC(=O)[C@H](CCC(N)=O)NC(=O)[C@H](CCCNC(=N)N)NC(=O)[C@@H](NC(=O)[C@H](CCC(N)=O)NC(C)=O)[C@@H](C)CC)[C@@H](C)CC)C(C)C)[C@@H](C)CC)[C@@H](C)CC)[C@@H](C)CC)C(C)C)C(=O)N[C@@H](CCCCN)C(=O)N[C@@H](CCC(N)=O)C(=O)N[C@@H](CC(C)C)C(=O)N[C@@H](CCC(N)=O)C(=O)N[C@@H](C)C(=O)N[C@@H](CCCNC(=N)N)C(=O)N[C@H](C(=O)N[C@@H](CC(C)C)C(=O)N[C@@H](C)C(=O)N[C@H](C(=O)N[C@@H](CCC(=O)O)C(=O)N[C@@H](CCCNC(=N)N)C(=O)N[C@@H](Cc1ccc(O)cc1)C(=O)N[C@@H](CC(C)C)C(=O)N[C@@H](CCCCN)C(N)=O)C(C)C)[C@@H](C)CC [SEQ ID NO:42]
Oligomerization [1]: Aggregates | Helicity [2]: 85% | Stability Tm [3]: >97 °C | Antiviral activity against HIV IIIB IC50 [5]: 13.605 µg/mL | Antiviral activity against HIV IIIB IC90 [5]: 33.56 µg/mL

CC[C@H](C)[C@H](NC(=O)CNC(=O)[C@H](Cc1c[nH]c2ccccc12)NC(=O)[C@@H](NC(=O)[C@@H](NC(=O)[C@H](CC(C)C)NC(=O)[C@H](CCC(N)=O)NC(=O)[C@H](CC(C)C)NC(=O)[C@H](CC(C)C)NC(=O)[C@H](Cc1c[nH]cn1)NC(=O)[C@H](CCC(N)=O)NC(=O)[C@H](CCC(N)=O)NC(=O)[C@H](C)NC(=O)[C@H](CCC(=O)O)NC(=O)[C@@H](NC(=O)[C@H](C)NC(=O)[C@H](CCCNC(=N)N)NC(=O)[C@H](CC(C)C)NC(=O)[C@H](CC(C)C)NC(=O)[C@H](CC(N)=O)NC(=O)[C@H](CC(N)=O)NC(=O)[C@H](CCC(N)=O)NC(=O)[C@H](CCC(N)=O)NC(=O)[C@H](CCC(N)=O)NC(C)=O)[C@@H](C)CC)[C@@H](C)O)C(C)C)C(=O)N[C@@H](CCCCN)C(=O)N[C@@H](CCC(N)=O)C(=O)N[C@@H](CC(C)C)C(=O)N[C@@H](CCC(N)=O)C(=O)N[C@@H](C)C(=O)N[C@@H](CCCNC(=N)N)C(=O)N[C@H](C(=O)N[C@@H](CC(C)C)C(=O)N[C@@H](C)C(=O)N[C@H](C(=O)N[C@@H](CCC(=O)O)C(=O)N[C@@H](CCCNC(=N)N)C(=O)N[C@@H](Cc1ccc(O)cc1)C(=O)N[C@@H](CC(C)C)C(=O)N[C@@H](CCCCN)C(=O)N[C@@H](CC(=O)O)C(=O)N[C@@H](CCC(N)=O)C(N)=O)C(C)C)[C@@H](C)CC [SEQ ID NO:27, reference compound]
Oligomerization [1]: Tetramer | Helicity [2]: 72% | Stability Tm [3]: Tm 76 °C | HR2 peptide binding [4]: Yes | Antiviral activity against HIV IIIB IC50 [5]: 4.69 µg/mL | Antiviral activity against HIV IIIB IC90 [5]: 23.24 µg/mL

CC[C@H](C)[C@H](NC(=O)[C@H](Cc1ccc(O)cc1)NC(=O)[C@H](CCCNC(=N)N)NC(=O)[C@H](CCC(=O)O)NC(=O)[C@H](CC(C)C)NC(=O)[C@H](C)NC(=O)[C@H](CC(C)C)NC(=O)[C@@H](NC(=O)[C@H](CCCNC(=N)N)NC(=O)[C@H](C)NC(=O)[C@H](CCC(N)=O)NC(=O)[C@H](CC(C)C)NC(=O)[C@H](CCC(N)=O)NC(=O)[C@H](CCCNC(=N)N)NC(=O)[C@@H](NC(=O)CNC(=O)[C@H](Cc1c[nH]c2ccccc12)NC(=O)[C@@H](NC(=O)[C@H](CC(C)C)NC(=O)[C@H](C)NC(=O)[C@H](CCC(N)=O)NC(=O)[C@@H](NC(=O)[C@H](C)NC(=O)[C@H](Cc1c[nH]cn1)NC(=O)[C@H](CCC(N)=O)NC(=O)[C@@H](NC(=O)[C@H](C)NC(=O)[C@H](CCC(=O)O)NC(=O)[C@H](CC(C)C)NC(=O)[C@H](C)NC(=O)[C@H](CCCNC(=N)N)NC(=O)[C@H](CC(C)C)NC(=O)[C@@H](NC(=O)[C@H](CC(N)=O)NC(=O)[C@H](CC(N)=O)NC(=O)[C@H](CCC(N)=O)NC(=O)[C@H](CCC(N)=O)NC(=O)[C@H](CCC(N)=O)NC(=O)[C@@H](NC(=O)[C@H](CC(C)C)NC(=O)CNC(=O)[C@H](CO)NC(=O)[C@@H](NC(=O)[C@H](CC(C)C)NC(=O)[C@H](CCC(N)=O)NC(=O)[C@H](CCCNC(=N)N)NC(=O)[C@H](C)NC(=O)[C@H](CCC(N)=O)NC(C)=O)C(C)C)C(C)C)[C@@H](C)CC)[C@@H](C)O)C(C)C)C(C)C)C(C)C)C(C)C)C(=O)N[C@@H](CCCCN)C(N)=O [SEQ ID NO:37]
Oligomerization [1]: Trimer* | Helicity [2]: 85% | Stability Tm [3]: Tm >97 °C | HR2 peptide binding [4]: Yes | Antiviral activity against HIV IIIB IC50 [5]: <0.78 µg/mL

CC[C@H](C)[C@H](NC(=O)CNC(=O)[C@H](C)NC(=O)[C@@H](NC(=O)[C@@H](NC(=O)[C@H](CC(C)C)NC(=O)[C@H](CCC(N)=O)NC(=O)[C@H](CC(C)C)NC(=O)[C@H](CC(C)C)NC(=O)[C@H](Cc1c[nH]cn1)NC(=O)[C@H](CCC(N)=O)NC(=O)[C@H](CCC(N)=O)NC(=O)[C@H](C)NC(=O)[C@H](CCC(=O)O)NC(=O)[C@@H](NC(=O)[C@H](C)NC(=O)[C@H](CCCNC(=N)N)NC(=O)[C@H](CC(C)C)NC(=O)[C@H](CC(C)C)NC(=O)[C@H](CC(N)=O)NC(=O)[C@H](CC(N)=O)NC(=O)[C@H](CCC(N)=O)NC(=O)[C@H](CCC(N)=O)NC(=O)[C@H](CCC(N)=O)NC(C)=O)[C@@H](C)CC)[C@@H](C)O)C(C)C)C(=O)N[C@@H](CCCCN)C(=O)N[C@@H](CCC(N)=O)C(=O)N[C@@H](CC(C)C)C(=O)N[C@@H](CCC(N)=O)C(=O)N[C@@H](C)C(=O)N[C@@H](CCCNC(=N)N)C(=O)N[C@H](C(=O)N[C@@H](CC(C)C)C(=O)N[C@@H](C)C(=O)N[C@H](C(=O)N[C@@H](CCC(=O)O)C(=O)N[C@@H](CCCNC(=N)N)C(=O)N[C@@H](Cc1ccc(O)cc1)C(=O)N[C@@H](CC(C)C)C(=O)N[C@@H](CCCCN)C(=O)N[C@@H](CC(=O)O)C(=O)N[C@@H](CCC(N)=O)C(N)=O)C(C)C)[C@@H](C)CC [SEQ ID NO:30]
Oligomerization [1]: Trimer* | Helicity [2]: 84% | Stability Tm [3]: Tm 77 °C | Antiviral activity against HIV IIIB IC50 [5]: 0.37 µg/mL | Antiviral activity against HIV IIIB IC90 [5]: 1.00 µg/mL
